A mixed list of measured activities; the numbers were collected in NIAID ChemDB.

Shared fields: whole-cell or culture tests; agent: HIV-1; measure: EC50

ECn: concentration that inhibits the pathogen or its effect by n%.

| structure | method | cells | changes | strain or isolate | result |
|---|---|---|---|---|---|
| CC(=O)N1CCC(C(=O)N(CCCN2CCC(Cc3ccc(C(N)=O)cc3)CC2)c2ccc(C)c(Cl)c2)CC1 | p24 | PBMC |  | HTN R5 clinical isolate | 0.00093 µM |
| O=c1[nH]cnc2c1ncn2[C@H]1CC[C@@H](CO)O1 | RT activity | MT-4 | RT-M41L | Clinical isolate (RT M41L) | 2.4 µM |
| CCOP(=O)(COc1ccc(C[C@H](NC(=O)O[C@H]2CO[C@H]3OCC[C@H]32)[C@H](O)CN(CC(C)C)S(=O)(=O)c2ccc(OC)cc2)cc1)OCC | ATP | MT-2 | ATV-P36 atazanavir-resistant mutant | IIIB | 0.0056 µM |
| CC(C)Nc1cccnc1N1CCN(C(=O)c2cc3cc(NS(C)(=O)=O)ccc3[nH]2)CC1 | RT activity | CBMC |  | HXB2D | 0.026 µM |
| CN[C@H]1CO[C@@H]2OCC[C@H](OC(=O)N[C@@H](Cc3ccccc3)[C@H](O)CN(CC(C)C)S(=O)(=O)c3ccc4nc(NC5CC5)sc4c3)[C@@H]21 | p24 / luminescence | MT-4 | L10F M46I I54V V82A | NL4-3 | 0.0059 µM |
| O=c1[nH]cnc2c1ncn2[C@H]1CC[C@@H](CO)O1 | syncytia | CEM | RT-Y181C | IIIB-TSAO-m3T(10)(RT-Y181C) | 5.5 µM |
| CC(C)CN(C[C@@H](O)[C@H](Cc1ccccc1)NC(=O)O[C@H]1CCOC1)S(=O)(=O)c1ccc(N)cc1 | p24 / luminescence | MT-4 | L10F M46I I54V V82A | NL4-3 | >1 µM |
| Nc1ccn([C@H]2CC[C@@H](CO)O2)c(=O)n1 | p24 | CBMC | RT-K65R | HXB2D (RT-K65R) | 10.3 ± 1.2 µM |
| CCN[C@H]1CO[C@@H]2OCC[C@H](OC(=O)N[C@@H](Cc3ccccc3)[C@H](O)CN(CC(C)C)S(=O)(=O)c3ccc4nc(NC5CC5)sc4c3)[C@@H]21 | p24 / luminescence | MT-4 | L10I N37D G48V I54V L63P G73C I84V L90M | NL4-3 | 0.0044 µM |
| CCN(c1nc(F)ccc1NC(C)(C)C)C1CCN(C(=O)c2cc3cc(NC(=O)N4CCN(C)CC4)ccc3[nH]2)CC1 | ATP | MT-2 | 8374-P36 GS-8374-resistant | IIIB | 0.0135 µM |
| C#C[C@]1(CO)O[C@@H](n2cnc3c(N)nc(F)nc32)C[C@@H]1O | single cycle / fluorescence | PBMC | A114S | Clinical isolate | 0.00044 µM |
| Nc1ccn([C@H]2C=C[C@@H](CO)O2)c(=O)n1 | plaque count | CD4+HELA + HeLa | RT-L74V | HXB2 | 0.7 µM |
| CCN[C@H]1CO[C@@H]2OCC[C@H](OC(=O)N[C@@H](Cc3cccc(OC)c3)[C@H](O)CN(CC(C)C)S(=O)(=O)c3ccc4nc(NC(C)C)sc4c3)[C@@H]21 | p24 / luminescence | MT-4 | L23I E34Q K43I M46I I50L G51A L63P A71V V82A T91A | NL4-3 | 0.0033 µM |
| Nc1ccn([C@H]2CC[C@@H](CO)O2)c(=O)n1 | plaque count | CD4+HELA + HeLa | RT-T215Y | HXB2 | 0.1 µM |
| Cn1c2ccccc2c2c1cc(C#N)c(=O)n2-c1ccc([N+](=O)[O-])cc1 | luciferase | HeLa | RT-K103N V108I | NNRTI-resistant | 0.0276 µM |
| Nc1ccn([C@H]2CC[C@@H](CO)O2)c(=O)n1 | syncytia | CEM | RT-Y181C | IIIB-Nevirapine(1.0)(RT-Y181C) | 0.078 µM |
| CC(C)OC(=O)OCOP(=O)(CO[C@H](C)Cn1cnc2c(N)ncnc21)OCOC(=O)OC(C)C | GFP | TZM-gfp | M184V | NL4-3 | 0.57 µM |
| O=S1(=O)N=C(Nc2ccc(F)c(F)c2F)C=C(Cc2ccccc2)N1 | MTT | MT-4 |  | IIIB | >198 µM |
| Nc1ccn([C@@H]2CO[C@H](CO)S2)c(=O)n1 | RT activity | MT-4 |  | HXB2D | 3 µM |
| Cc1cn([C@H]2C[C@H](N=[N+]=[N-])[C@@H](CO)O2)c(=O)[nH]c1=O | syncytia | CEM | RT-L100I | IIIB-BHAP)(0.1)(RT-L100I | 0.002 µM |
| Cc1ccc(NC2=NS(=O)(=O)NC(Cc3ccccc3)=C2)cc1Cl | MTT | MT-4 |  | IIIB | >175 µM |
| Cc1cn([C@H]2C[C@H](N=[N+]=[N-])[C@@H](CO)O2)c(=O)[nH]c1=O | luciferase | HeLa | RT-M41L K70R T215F K219E | NRTI resistant | 1.37 µM |
| Nc1nc(=O)n([C@@H]2CO[C@H](CO)S2)cc1F | RT activity | CBMC | RT-M184I | HXB2D(RT-M184I) | 4.5 µM |
| O=S1(=O)NC(Cc2ccc3ccccc3c2)=CC(=NC2CC2)N1 | MTT | MT-4 |  | IIIB | >218 µM |
| O=S(=O)(c1ccccc1)c1cccc2c1NCCC2 | XTT | CEM + CEM-SS |  | IIIB | 20 µM |
| Cc1c(O)cccc1C(=O)N[C@@H](CSc1ccccc1)[C@H](O)CN1C[C@H]2CCCC[C@H]2C[C@H]1C(=O)NC(C)(C)C | luciferase / recombinant virus assay | HEK 293 + 293 Cells |  | NL4-3 WT | 0.007 µM |
| C[C@H](Cn1cnc2c(N)ncnc21)OCP(=O)(O)O | cytopathic effect / XTT | MT-2 | RT-K65R Y115F | Site-directed mutant | 21.24 µM |
| Cc1cn([C@H]2C[C@H](N=[N+]=[N-])[C@@H](CO)O2)c(=O)[nH]c1=O | ATP | MT-2 | LPV-P31 lopinavir-resistant mutant | IIIB | 0.513 µM |
| Nc1ncnc2c1ncn2CCOCP(=O)(O)O | syncytia | CEM |  | IIIB | 7 µM |
| COC(=O)N[C@H](C(=O)N[C@@H](Cc1ccccc1)[C@@H](O)CN(Cc1ccc(-c2ccccn2)cc1)NC(=O)[C@@H](NC(=O)OC)C(C)(C)C)C(C)(C)C | p24 / luminescence | MT-4 | L10F V32I L33F M46L I54M A71V | NL4-3 | 0.0037 µM |
| CC(C)(C)OC(=O)N[C@@H](Cc1ccccc1)[C@H](O)CNC[C@@H](O)[C@H](Cc1ccccc1)NC(=O)C(C)(O)C(C)(C)C | p24 | PBMC |  | A018C | 0.11 µM |
| Cc1cn([C@H]2C[C@H](N=[N+]=[N-])[C@@H](CO)O2)c(=O)[nH]c1=O | cytopathic effect / XTT | Macrophage |  | BaL | 0.4 µM |
| CC(C)(C)NC(=O)[C@@H]1CN(Cc2cccnc2)CCN1C[C@@H](O)C[C@@H](Cc1ccccc1)C(=O)N[C@H]1c2ccccc2C[C@H]1O | cytopathic effect / MTT | MT-4 | SQV-resistant (PR G48V L90M) | NL4-3 | 0.254 µM |
| Nc1nc(NC2CC2)c2ncn([C@H]3C=C[C@@H](CO)C3)c2n1 | cytopathic effect / XTT | MT-2 | RT-K65R | Site-directed mutant | 1.25 µM |
| Nc1nc(=O)n([C@H]2CO[C@@H](CO)S2)cc1F | RT activity | CBMC |  | 4170 (AZT-resistant) | 1.8 µM |
| N#Cc1cc2[nH]c3ccccc3c2n(-c2ccc([N+](=O)[O-])cc2)c1=O | luciferase | HeLa | RT-K103N L100I | NNRTI-resistant | 0.577 µM |
| O=S1(=O)N=C(Nc2ccc(Cl)cc2)C=C(Cc2cccc3ccccc23)N1 | MTT | MT-4 |  | IIIB | 26 µM |
| CNc1ccc(Cl)cc1S(=O)(=O)c1ccccc1[N+](=O)[O-] | XTT | CEMx174 + CEM |  | IIIB | 0.3 µM |

Again, the opening 4 rows:

structure,method,cells,changes,strain or isolate,result
CC(=O)N1CCC(C(=O)N(CCCN2CCC(Cc3ccc(C(N)=O)cc3)CC2)c2ccc(C)c(Cl)c2)CC1,p24,PBMC,,HTN R5 clinical isolate,0.00093 µM
O=c1[nH]cnc2c1ncn2[C@H]1CC[C@@H](CO)O1,RT activity,MT-4,RT-M41L,Clinical isolate (RT M41L),2.4 µM
CCOP(=O)(COc1ccc(C[C@H](NC(=O)O[C@H]2CO[C@H]3OCC[C@H]32)[C@H](O)CN(CC(C)C)S(=O)(=O)c2ccc(OC)cc2)cc1)OCC,ATP,MT-2,ATV-P36 atazanavir-resistant mutant,IIIB,0.0056 µM
CC(C)Nc1cccnc1N1CCN(C(=O)c2cc3cc(NS(C)(=O)=O)ccc3[nH]2)CC1,RT activity,CBMC,,HXB2D,0.026 µM

Lines come from different laboratories, so protocols vary. An empty or dashed field is not shown.